These results are taken from patent US5776928A (priority 1995, dated 1998).

The test system of this assay is 5-HT-2 receptor. The experiment in a line: activity at the 5-HT-2 receptor. Particulars: anhydrous Form I.

As to `Cc1cc2c(s1)Nc1ccccc1N=C2N1CCN(C)CC1` [anhydrous Form I compound], the “activity at the 5-HT-2 receptor” value was “active”.
